This passage reports IC50 results from paper PMC8982737, “Discovery of S-217622, a Noncovalent Oral SARS-CoV-2 3CL Protease Inhibitor Clinical Candidate for Treating COVID-19” (Journal of Medicinal Chemistry, 2022).

The structures appear in SMILES notation. The match of structure and compound is tentative.

The assay concerns the target SARS-CoV-2 3CL protease (Severe acute respiratory syndrome coronavirus 2, UniProt P0DTD1). Particulars: read-out: SARS-CoV-2 3CLpro IC50.

Consider `COc1ccc(N=c2[nH]c(=O)n(Cc3ncn(C)n3)c(=O)n2Cc2cc(F)c(F)c(F)c2)cc1`, for which the IC50 stood at 1100 nM.

With `COc1ccc(N=c2[nH]c(=O)n(Cc3nc[nH]n3)c(=O)n2Cc2cc(F)c(F)c(F)c2)cc1`, the IC50 is 280 nM.
